Here are results for 1 substance from patent publication US20230045284A1.

Values joined by “and” are separate entries in the source; they are usually repeats but may differ in a detail not shown here. Equal values may be shown once.

The target in the assay is Total cellular Ras (all isoforms KRas, HRas and NRas, endogenous, in human cell lines). The assay is described as follows: cell-based or functional assay.

As to “RRSP-DTB (RRSP fused via a (G4S)2 linker to diphtheria toxin residues 186-535, DTT-DTR) (from UniProt P00588 186-535) (enzyme)”, the concentration inhibiting cell proliferation, KRAS-mutant PDAC cell lines was 63 picomolar and 181 picomolar.
